From patent US12545673B2, “Imidazopyridine derivative and pharmaceutical composition comprising same as active ingredient” (TSD LIFE SCIENCES CO., LTD., priority 2019, dated 2026)

Test system: influenza virus PR8
Test: Antiviral effect evaluation 1, influenza-infected MDCK (MTT), PR8
Format: cell-based

CCS(=O)(=O)N1CCC(Nc2c(Br)cnc3nc(-c4cc(C)n(-c5ccc(OCCN6CCOCC6)cc5)c4C)[nH]c23)C1 (stereo not drawn) showed a Selectivity index: CC50/EC50 PR8 greater than 9.
In the case of CCS(=O)(=O)N1CCC(Nc2c(Br)cnc3[nH]c(-c4cc(C)n(-c5cc(NS(C)(=O)=O)ccc5C)c4C)nc23)C1 (stereo not drawn), the Selectivity index: CC50/EC50 PR8 is reported as greater than 3.1.
CCS(=O)(=O)N1CCC(Nc2c(Br)cnc3nc(-c4cc(C)n(-c5cccc(NS(C)(=O)=O)c5)c4C)[nH]c23)C1 (stereo not drawn) gave a Selectivity index: CC50/EC50 PR8 greater than 1.
